Data as given in PubChem BioAssay AID504761 (Drosophila RNAi Screening Center, 2011)
Purpose: 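Genome-wide fly cell screen for genes dengue virus requires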 (primary screen). Cell system: D.Mel-2 cells from Drosophila. Reagent: long dsRNA against Drosophila genes. Conditions: infection with dengue virus type 2; dose and infection time not stated. Measurement: 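Per well on two replicate plates, imaging gave the percent of cells positive for viral envelope protein, ranked by infection, and a nuclear count of cells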. Direction: infection score: higher = more virus-infected cells; cell count: higher = more cells in the well. Rule for the call: 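Very low infection ranking in both replicate wells (chance probability at most 0.065), then a retest showing infection dropped 1.5-fold or more at p below 0.05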. Calls: active = confirmed: knock-down lowers infection; inactive = not picked or not confirmed.
The screen tested about 22,000 reagents; shown is an unselected part of those that have a named target and a result. Over the whole deposit, 116 (0.52%) are marked active. 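Calls depend on retest data that are not deposited; infection was ranked per plate without normalising between plates; the unit of the infection score is not given.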 The raw values are shown without normalisation. A plus sign joins genes that one reagent is predicted to hit. The record does not give: the amount of reagent, the time to read-out.

gene | dsRNA | infection score, replicate 1 | infection score, replicate 2 | cell count, replicate 1 | cell count, replicate 2 | Outcome
ng4 | DRSC18805 | 2 | 2.46 | 6434 | 3450 | inactive
fiz | DRSC20188 | 1.58 | 2.74 | 6436 | 6572 | inactive
CycH | DRSC11861 | 2.45 | 7.07 | 6745 | 6254 | inactive
CycH | DRSC21308 | 3.44 | 3.97 | 5434 | 6369 | inactive
CIAPIN1 | DRSC03559 | 20.6 | 5.11 | 6106 | 5896 | inactive
CIAPIN1 | DRSC24039 | 0.97 | 4.66 | 6192 | 5917 | inactive
CG12869 | DRSC06208 | 1.85 | 8.95 | 6971 | 5878 | inactive
CG15128 | DRSC06550 | 5.13 | 4.11 | 5892 | 5961 | inactive
St3 | DRSC04505 | 1.33 | – | 6555 | – | inactive
puc | DRSC17034 | 1.84 | 1.95 | 5169 | 6140 | inactive
puc | DRSC26308 | 4.21 | 2.36 | 5300 | 6132 | inactive
CG32487 | DRSC21745 | 8.25 | 9.73 | 6109 | 6148 | inactive
CG32487 | DRSC29078 | 27.2 | 7.77 | 6011 | 3641 | inactive
Gr64d + Gr64e | DRSC08446 | 2.49 | 30.2 | 5471 | 6096 | inactive
CG9386 | DRSC16485 | 10.8 | 5.44 | 7106 | 7273 | inactive
CG3663 | DRSC04402 | 27.9 | 8.27 | 6314 | 2562 | inactive
CG3663 | DRSC27007 | 5.32 | 18.1 | 7029 | 6205 | inactive
CG45263 | DRSC14360 | 3.44 | 10.8 | 6793 | 6321 | inactive
CG45263 | DRSC14361 | 4.35 | 13.7 | 6781 | 5468 | inactive
CG45263 | DRSC14363 | 16.1 | 11.5 | 5381 | 6530 | inactive
CG13300 | DRSC09974 | 1.46 | 3.79 | 6033 | 5178 | inactive
CG13300 | DRSC25081 | 1.8 | 2.71 | 6619 | 6446 | inactive
Cpr60D | DRSC04492 | 10.2 | 2.49 | 6276 | 6515 | inactive
Tsf2 | DRSC09751 | 8.1 | 1.92 | 6396 | 6629 | inactive
CG33292 (retired record) | DRSC22923 | 0.55 | 1.52 | 6563 | 7123 | inactive
CG33292 (retired record) | DRSC28616 | 23.7 | 5.83 | 6196 | 5677 | inactive
Ubc84D | DRSC12610 | 4.09 | 13 | 6700 | 5728 | inactive
Ubc84D | DRSC25384 | 8.12 | 2.13 | 5862 | 6140 | inactive

A portion of the results above, as a working copy:
gene | dsRNA | infection score, replicate 1 | infection score, replicate 2 | cell count, replicate 1 | cell count, replicate 2 | Outcome
CG9386 | DRSC16485 | 10.8 | 5.44 | 7106 | 7273 | inactive
CG3663 | DRSC04402 | 27.9 | 8.27 | 6314 | 2562 | inactive
CG3663 | DRSC27007 | 5.32 | 18.1 | 7029 | 6205 | inactive
CG45263 | DRSC14360 | 3.44 | 10.8 | 6793 | 6321 | inactive
CG45263 | DRSC14361 | 4.35 | 13.7 | 6781 | 5468 | inactive
CG45263 | DRSC14363 | 16.1 | 11.5 | 5381 | 6530 | inactive

The list goes on.
gene | dsRNA | infection score, replicate 1 | infection score, replicate 2 | cell count, replicate 1 | cell count, replicate 2 | Outcome
CG7025 | DRSC03002 | 3.83 | 6.53 | 6190 | 6588 | inactive
Phm | DRSC04639 | 9.17 | 26.9 | 6259 | 5216 | inactive
stet | DRSC08246 | 2.42 | 4.11 | 6239 | 5746 | inactive
stet | DRSC08283 | 2 | 4.92 | 5957 | 5978 | inactive
Cpr47Ef | DRSC06336 | 29.9 | 7.19 | 5239 | 6745 | inactive
Cpr47Ef | DRSC22450 | 1.8 | 4.31 | 6326 | 6841 | inactive
Cpr47Ef | DRSC25090 | 4.34 | 1.14 | 6159 | 6389 | inactive
Cpr47Ef | DRSC25665 | 9.91 | 10.2 | 5739 | 5434 | inactive
CG2750 | DRSC19867 | 6.56 | 6.24 | 6812 | 7049 | inactive
CG13748 | DRSC06419 | 13.1 | 20.6 | 6626 | 4188 | inactive
CG5516 | DRSC15826 | 4.78 | 22.2 | 6636 | 3401 | inactive
CG5516 | DRSC21753 | 3.39 | 5.43 | 6425 | 6445 | inactive
CG5516 | DRSC27984 | 6.21 | 13.8 | 6549 | 6194 | inactive
Rad9 | DRSC11263 | 12.6 | 5.7 | 5063 | 6594 | inactive
CG32277 | DRSC08196 | 0.47 | 4.09 | 6333 | 6037 | inactive
CG13041 | DRSC09922 | 1.83 | 4.79 | 5941 | 5800 | inactive
CG13041 | DRSC26793 | 8.05 | 13.5 | 6645 | 6596 | inactive
chas | DRSC19508 | 23.1 | 8.51 | 5793 | 6812 | inactive
chas | DRSC19509 | 11.7 | 5.07 | 6058 | 6593 | inactive
chas | DRSC29130 | 8.87 | – | 2750 | 227 | inactive
CG3345 | DRSC00596 | 5.04 | 3.36 | 5911 | 6719 | inactive
CG32428 | DRSC11697 | 27.2 | 32.5 | 6496 | 4887 | inactive
CG32428 | DRSC11768 | 5.33 | 4.9 | 6168 | 6104 | inactive
CG32428 | DRSC25993 | 2.1 | 4.3 | 6915 | 6305 | inactive
Pp2A-29B | DRSC03400 | 10.5 | 10.3 | 5900 | 6026 | inactive
Pp2A-29B | DRSC28394 | – | 1.1 | 309 | 637 | inactive
CG9459 | DRSC16496 | 1.59 | 8.4 | 6495 | 6563 | inactive
CG17744 | DRSC10286 | 2.03 | 2.57 | 5975 | 6333 | inactive
CG8319 | DRSC16407 | 4.78 | 14.6 | 5980 | 5953 | inactive
CG8319 | DRSC24607 | 1.91 | 4.23 | 5749 | 5538 | inactive
CG30458 | DRSC28635 | 15.1 | 7.47 | 5511 | 4473 | inactive
jef | DRSC06198 | 9.22 | 7.53 | 2722 | 6604 | inactive
jef | DRSC24815 | 4.08 | 7.74 | 6293 | 6421 | inactive
Eps-15 | DRSC04288 | 2.1 | 10.3 | 6346 | 5376 | inactive
Prosbeta5 | DRSC07517 | 1.66 | 4.44 | 2104 | 2569 | inactive
Prosbeta5 | DRSC28939 | – | – | 304 | 433 | inactive
ODA-Dnal1 | DRSC07270 | 8.12 | 6.48 | 6074 | 6929 | inactive
ODA-Dnal1 | DRSC28259 | 17.1 | 7.39 | 6093 | 6269 | inactive
Wdr81 | DRSC02985 | 10.5 | 11.9 | 6169 | 6131 | inactive
Wdr81 | DRSC27272 | 4.18 | 3.7 | 6790 | 6387 | inactive
nst | DRSC09755 | 11.4 | 5.41 | 6265 | 6473 | inactive
ND-B14.7 | DRSC04544 | 11.5 | 15.3 | 4731 | 6295 | inactive
CG10492 | DRSC24982 | 17 | 21.3 | 4869 | 5367 | inactive
Cpr65Az | DRSC09882 | 0.94 | 1.13 | 5946 | 5582 | inactive
Cpr65Az | DRSC22057 | 4.92 | 0.76 | 6124 | 6687 | inactive
Cpr65Az | DRSC23964 | 9.61 | 18.6 | 5422 | 5687 | inactive
